Source: PubChem BioAssay AID624099 (ICCB-Longwood, 2012)
The deposit covers about 21,000 reagents; below is a part drawn at random. 497 of them (2.4%) count as active. 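Higher z means weaker E2 silencing; only reporter increases were scored, and knock-downs that hurt cell survival may mask genuine repressor factors.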 The numbers tell different reagents against one gene apart. No sequences are given here.

- Screen: 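Knock-downs relieving repression by E2 of an HPV18 LCR luciferase reporter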 (primary screen)
- Cell system: human C33A cervical carcinoma cells (HPV-negative) stably expressing BPV1 E2 and an HPV18 LCR luciferase reporter
- Knock-down reagent: siRNA pool against human genes, 40 nM
- Time to read-out: 72 h
- Detection: 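Per-well luciferase luminescence, z-scored on each plate against the plate mean and SD with control wells left out, then averaged across three replicate plates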
- Scale: mean z-score and z-score: higher = stronger reporter signal, weaker E2 silencing
- Hit rule: 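Mean z ≥ 2 together with z ≥ 2 in two or more of the three replicates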

The opening 2 entries, to show the layout:
| Target gene | reagent no. | mean z-score | z-score, replicate A | z-score, replicate B | z-score, replicate C | activity call |
| --- | --- | --- | --- | --- | --- | --- |
| DUSP26 (dual specificity phosphatase 26) | 1 | 0.48 | 0.61 | 0.3 | 0.54 | inactive |
| UPF2 (UPF2 regulator of nonsense mediated mRNA decay) | 1 | 0.36 | 0.47 | 0.46 | 0.14 | inactive |

Main list, repeating the preview:
| Target gene | reagent no. | mean z-score | z-score, replicate A | z-score, replicate B | z-score, replicate C | activity call |
| --- | --- | --- | --- | --- | --- | --- |
| DUSP26 (dual specificity phosphatase 26) | 1 | 0.48 | 0.61 | 0.3 | 0.54 | inactive |
| UPF2 (UPF2 regulator of nonsense mediated mRNA decay) | 1 | 0.36 | 0.47 | 0.46 | 0.14 | inactive |
| TBC1D2 (TBC1 domain family member 2) | 1 | -0.14 | -0.32 | 0.25 | -0.36 | inactive |
| UNC93B6 (unc-93 homolog B6 (pseudogene)) | 1 | 0.84 | 0.7 | 1.35 | 0.46 | inactive |
| EEF2K (eukaryotic elongation factor 2 kinase) | 1 | -0.02 | 0.03 | -0.2 | 0.11 | inactive |
| LOC389392 (retired record) | 1 | 0.5 | 0.27 | 0.78 | 0.45 | inactive |
| ZNF286A (zinc finger protein 286A) | 1 | 1.02 | 1.18 | 1.34 | 0.55 | inactive |
| MBNL3 (muscleblind like splicing regulator 3) | 1 | 0.19 | 0.32 | 0.22 | 0.03 | inactive |
| KRTAP13-3 (keratin associated protein 13-3) | 1 | -0.91 | -0.93 | -0.86 | -0.94 | inactive |
| TPT1P8 (TPT1 pseudogene 8) | 1 | 0.74 | 0.89 | 0.52 | 0.81 | inactive |
| FRMD1 (FERM domain containing 1) | 1 | 0.43 | 0.55 | 0.86 | -0.11 | inactive |
| MYOT (myotilin) | 1 | 0.02 | 0.04 | -0.18 | 0.2 | inactive |
| CCER1 (coiled-coil glutamate rich protein 1) | 1 | 0.32 | 0.5 | 0.13 | 0.35 | inactive |
| LOC389415 (retired record) | 1 | 0.19 | -0.01 | 0.31 | 0.28 | inactive |
| B4GAT1 (beta-1,4-glucuronyltransferase 1) | 1 | 0.59 | 0.63 | 0.51 | 0.63 | inactive |
| ARL1 (ARF like GTPase 1) | 1 | -0.35 | -0.42 | -0.23 | -0.38 | inactive |
| ZFHX2 (zinc finger homeobox 2) | 1 | 0.98 | 1.12 | 1.34 | 0.47 | inactive |
| ZFHX2 (zinc finger homeobox 2) | 2 | -1.52 | -1.43 | -1.92 | -1.21 | inactive |
| COL16A1 (collagen type XVI alpha 1 chain) | 1 | 1.65 | 1.77 | 1.62 | 1.57 | inactive |
| LOC390426 (retired record) | 1 | -0.69 | -0.66 | -0.6 | -0.81 | inactive |
| E2F5 (E2F transcription factor 5) | 1 | -0.1 | -0.34 | -0.03 | 0.06 | inactive |
| GARIN2 (golgi associated RAB2 interactor family member 2) | 1 | -0.62 | -0.68 | -0.18 | -1.02 | inactive |
| OR4M1 (olfactory receptor family 4 subfamily M member 1) | 1 | 0.6 | 0.16 | 0.37 | 1.27 | inactive |
